According to ChEMBL document CHEMBL5512668, “Macrocyclic Azapeptide Nitriles: Structure-Based Discovery of Potent SARS-CoV-2 Main Protease Inhibitors as Antiviral Drugs” (J Med Chem, 2024):

Legend:
[1] = target: Replicase polyprotein 1ab (Severe acute respiratory syndrome coronavirus 2) (UniProt P0DTD1); settings: dose 1.0 µM, time 65.0 min
[2] = target: Replicase polyprotein 1ab (Severe acute respiratory syndrome coronavirus 2) (UniProt P0DTD1); settings: time 65.0 min

Row | SMILES | inhibition [1] [%] | K [2] [M⁻¹ s⁻¹]
1 | CN(C(=O)[C@H](Cc1ccccc1)NC(=O)OCc1ccccc1)N(C#N)Cc1ccc(Br)c(F)c1 | 100 | 14000
2 | CN(C(=O)[C@H](Cc1ccccc1)NC(=O)CNc1ccc(F)cc1F)N(C#N)Cc1ccc(Cl)cc1 | 59 | 4890
3 | CCCS(=O)(=O)N[C@H](C(=O)N[C@@H](Cc1ccccc1)C(=O)N(C)N(C#N)Cc1ccc(Cl)cc1)C(C)(C)C | 99 | 29200
4 | CN(C(=O)[C@H](Cc1ccccc1)NC(=O)COc1ccc(Cl)cc1Cl)N(C#N)Cc1ccc(Cl)cc1 | 35 | 3360
5 | CN(C(=O)[C@H](Cc1ccccc1)NC(=O)OCc1ccccc1)N(C#N)Cc1ccc(F)cc1 | 100 | 9320
6 | CN(C(=O)[C@H](Cc1ccccc1)NC(=O)OCc1ccccc1)N(C#N)Cc1cccc(F)c1 | 100 | 25900
7 | CN(C(=O)[C@H](Cc1ccccc1)NC(=O)OCc1ccccc1)N(C#N)Cc1cc(Cl)ccc1F | 100 | 21800
8 | CN(C(=O)[C@H](Cc1ccccc1)NC(=O)OCc1ccccc1)N(C#N)Cc1c(F)cc(Br)cc1F | 100 | 21800
9 | COc1cccc(CN(C#N)N(C)C(=O)[C@H](Cc2ccccc2)NC(=O)OCc2ccccc2)c1F | 100 | 23400
10 | CN(C(=O)[C@H](Cc1ccccc1)NC(=O)[C@@H](NC(=O)c1ccc(-c2cccs2)s1)C(C)(C)C)N(C#N)Cc1ccc(Cl)cc1 | 58 | 8150
11 | CN(C(=O)[C@H](Cc1ccccc1)NC(=O)COc1cccc(F)c1Br)N(C#N)Cc1ccc(Cl)cc1 | 39 | 3320
12 | CN(C(=O)[C@H](Cc1ccccc1)NC(=O)C1(NC(=O)c2cccs2)CC1)N(C#N)Cc1ccc(Cl)cc1 | 72 | 6040
13 | CN(C(=O)[C@H](Cc1ccccc1)NC(=O)OCc1ccccc1)N(C#N)Cc1ccc(Br)c(Cl)c1F | 100 | 22400
14 | CN(C(=O)[C@H](Cc1ccccc1)NC(=O)CNc1c(F)cccc1F)N(C#N)Cc1ccc(Cl)cc1 | 71 | 4670
15 | CN(C(=O)[C@H](Cc1ccccc1)NC(=O)OCc1ccccc1)N(C#N)Cc1ccccc1Cl | 100 | 22200
16 | COc1c(Cl)cccc1CN(C#N)N(C)C(=O)[C@H](Cc1ccccc1)NC(=O)OCc1ccccc1 | 83 | 10400
17 | CN1C(=O)[C@H](CCc2ccccc2)NC(=O)COCCOc2ccc(F)cc2CN1C#N | 33 | 3180
18 | CN(C(=O)[C@H](Cc1ccccc1)NC(=O)OCc1ccccc1)N(C#N)Cc1cccc(Br)c1 | 100 | 43600
19 | CN(C(=O)[C@H](Cc1ccccc1)NC(=O)OCc1ccccc1)N(C#N)Cc1ccc(Br)cc1Cl | 100 | 20000
20 | CN(C(=O)[C@H](Cc1ccccc1)NC(=O)OCc1ccccc1)N(C#N)Cc1ccc(Br)cc1F | 100 | 13700

Row | SMILES | inhibition [1] [%] | K [2] [M⁻¹ s⁻¹]
21 | COc1ccc(OC)c(CN(C#N)N(C)C(=O)[C@H](Cc2ccccc2)NC(=O)OCc2ccccc2)c1 | 54 | 4870
22 | CN1C(=O)[C@H](CCc2ccccc2)NC(=O)COCCOCCOc2ccc(F)cc2CN1C#N | 14 | 
23 | CN(C(=O)[C@H](Cc1ccccc1)NC(=O)CCc1ccc(F)c(F)c1)N(C#N)Cc1ccc(Cl)cc1 | 44 | 4040
24 | CN(C(=O)[C@H](Cc1ccccc1)NC(=O)COc1ccc(F)cc1)N(C#N)Cc1ccc(Cl)cc1 | 47 | 4740
25 | CN(C(=O)[C@H](Cc1ccccc1)NC(=O)c1cc2cc(Cl)ccc2[nH]1)N(C#N)Cc1ccc(Cl)cc1 | 100 | 35900
26 | CN1C(=O)[C@H](Cc2ccccc2)N(C(=O)COc2ccc(Cl)cc2Cl)CCCCOc2ccc(F)cc2CN1C#N | 100 | 
27 | CN(C(=O)[C@H](Cc1ccccc1)NC(=O)OCc1ccccc1)N(C#N)Cc1ccsc1 | 83 | 10100
28 | CN(C(=O)[C@H](Cc1ccccc1)NC(=O)OCc1ccccc1)N(C#N)Cc1ccco1 | 96 | 14300
29 | CN1C(=O)[C@H](Cc2ccccc2)N(C(=O)[C@@H](NC(=O)c2cccs2)C(C)(C)C)CCCOc2ccc(Cl)c(F)c2CN1C#N | 7 | 
30 | CN1C(=O)[C@H](Cc2ccccc2)N(C(=O)COc2ccc(Cl)cc2Cl)CCCCCOc2ccc(F)cc2CN1C#N | 100 | 
31 | CN(C(=O)[C@H](Cc1ccccc1)NC(=O)OCc1ccccc1)N(C#N)Cc1ccccc1F | 100 | 25600
32 | COc1ccc(CN(C#N)N(C)C(=O)[C@H](Cc2ccccc2)NC(=O)OCc2ccccc2)cc1 | 81 | 9740
33 | COc1ccc(NCC(=O)N[C@@H](Cc2ccccc2)C(=O)N(C)N(C#N)Cc2ccc(Cl)cc2)c(Cl)c1 | 74 | 5450
34 | COc1ccc(Cl)c(F)c1CN(C#N)N(C)C(=O)[C@H](Cc1ccccc1)NC(=O)OCc1ccccc1 | 84 | 10300
35 | CN(C(=O)[C@H](Cc1ccccc1)NC(=O)CNc1ccc(F)c(F)c1)N(C#N)Cc1ccc(Cl)cc1 | 86 | 10700
36 | COc1ccc(OCC(=O)N[C@@H](Cc2ccccc2)C(=O)N(C)N(C#N)Cc2ccc(Cl)cc2)cc1 | 50 | 2760
37 | CN(C(=O)[C@H](Cc1ccccc1)NC(=O)OCc1ccccc1)N(C#N)Cc1ccccc1Br | 100 | 13000
38 | COc1cccc(OCC(=O)N[C@@H](Cc2ccccc2)C(=O)N(C)N(C#N)Cc2ccc(Cl)cc2)c1 | 50 | 4290
39 | CN(C(=O)[C@H](Cc1ccccc1)NC(=O)OCc1ccccc1)N(C#N)Cc1ccc(Br)c(Cl)c1 | 96 | 15500
